PubChem BioAssay AID624099 | ICCB-Longwood – 2012
Here is one part, drawn at random, of about 21,000 deposited reagents. 497 of all reagents (2.4%) count as active. 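Higher z means weaker E2 silencing; only reporter increases were scored, and knock-downs that hurt cell survival may mask genuine repressor factors.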 Entries without a mark were called inactive. The numbers tell different reagents against one gene apart.

- Test: 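Knock-downs relieving repression by E2 of an HPV18 LCR luciferase reporter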 (primary screen)
- System: human C33A cervical carcinoma cells (HPV-negative) stably expressing BPV1 E2 and an HPV18 LCR luciferase reporter
- Reagents: siRNA pool against human genes, 40 nM
- Timing: 72 h
- Measurement: 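Per-well luciferase luminescence, z-scored on each plate against the plate mean and SD with control wells left out, then averaged across three replicate plates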
- Direction: mean z-score and z-score: higher = stronger reporter signal, weaker E2 silencing
- Call rule: 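Hit if mean z-score reaches 2 and two or more of three replicate z-scores also reach 2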

{"gene knocked down": "DYNLL1P3", "pool no.": 1, "mean z-score": -0.5, "z-score, replicate A": -0.05, "z-score, replicate B": -1.06, "z-score, replicate C": -0.38}
{"gene knocked down": "PLK1", "pool no.": 1, "mean z-score": -0.89, "z-score, replicate A": -1.06, "z-score, replicate B": -0.77, "z-score, replicate C": -0.85}
{"gene knocked down": "CACNA1C", "pool no.": 1, "mean z-score": -1.64, "z-score, replicate A": -1.82, "z-score, replicate B": -1.62, "z-score, replicate C": -1.48}
{"gene knocked down": "CACNA1C", "pool no.": 2, "mean z-score": 0.43, "z-score, replicate A": 0.43, "z-score, replicate B": 0.75, "z-score, replicate C": 0.12}
{"gene knocked down": "AP1M1", "pool no.": 1, "mean z-score": -0.62, "z-score, replicate A": -0.43, "z-score, replicate B": -0.71, "z-score, replicate C": -0.72}
{"gene knocked down": "ACMSD", "pool no.": 1, "mean z-score": 0.95, "z-score, replicate A": 1, "z-score, replicate B": 0.98, "z-score, replicate C": 0.87}
{"gene knocked down": "LINC01356", "pool no.": 1, "mean z-score": -0.24, "z-score, replicate A": -0.33, "z-score, replicate B": 0.06, "z-score, replicate C": -0.45}
{"gene knocked down": "WDR90", "pool no.": 1, "mean z-score": 1.29, "z-score, replicate A": 0.93, "z-score, replicate B": 1.26, "z-score, replicate C": 1.67}
{"gene knocked down": "WDR90", "pool no.": 2, "mean z-score": 1.77, "z-score, replicate A": 1.56, "z-score, replicate B": 1.58, "z-score, replicate C": 2.18}
{"gene knocked down": "MSH5", "pool no.": 1, "mean z-score": -0.73, "z-score, replicate A": -0.62, "z-score, replicate B": -0.9, "z-score, replicate C": -0.66}
{"gene knocked down": "STRBP", "pool no.": 1, "mean z-score": -0.92, "z-score, replicate A": -0.78, "z-score, replicate B": -1.08, "z-score, replicate C": -0.91}
{"gene knocked down": "MRPS9", "pool no.": 1, "mean z-score": 0.83, "z-score, replicate A": 1.24, "z-score, replicate B": 0.52, "z-score, replicate C": 0.72}
{"gene knocked down": "SNX33", "pool no.": 1, "mean z-score": -0.17, "z-score, replicate A": 0.15, "z-score, replicate B": -0.09, "z-score, replicate C": -0.57}
{"gene knocked down": "TCEAL2", "pool no.": 1, "mean z-score": "2.24 (active)", "z-score, replicate A": 2.21, "z-score, replicate B": 2.28, "z-score, replicate C": 2.24}
